Experimental data from patent US20230233533A1, “COMPOSITIONS, METHODS OF TREATING AND PREVENTING FUNGAL INFECTIONS, AND METHODS OF INHIBITING PRP8 INTEIN EXPRESSION” (Health Research, Inc., priority 2020, published 2023).

System: C. neoformans H99 strain
Test: Fungal susceptibility test, broth microdilution MIC
Assay type: cell-based, Cryptococcus neoformans
Details: CC50 A549 / MIC C. neoformans
Description: Fungal susceptibility test—The fungal susceptibility test was carried out with a compound concentration series as described. […] The broth microdilution method was used to determine the compound MIC values against C. neoformans.
Fungal susceptibility test—The fungal susceptibility test was carried out with a compound concentration series as described. […] Microbes. Infect. […] The broth microdilution method was used to determine the compound MIC values against C. neoformans.

Row | Compound | TI, therapeutic index (CC50/MIC)
1 | 5-((4-Chlorophenyl)sulfonyl)-N-(6-fluoropyridin-3-yl)-1,2,3-thiadiazole-4-carboxamide [JMX0581] | 118
2 | 5-((4-Chlorophenyl)thio)-N-(6-fluoropyridin-3-yl)-1,2,3-thiadiazole-4-carboxamide [JMX0580] | <0.3
3 | O=C(Nc1ccc(F)cc1F)c1nnsc1S(=O)(=O)c1ccc(Cl)cc1 [6G-319S, 5-((4-Chlorophenyl)sulfonyl)-N-(2,4-difluorophenyl)-1,2,3-thiadiazole-4-carboxamide] | 35
4 | O=C(Nc1ccc(F)cc1F)c1ncsc1S(=O)(=O)c1ccc(Cl)cc1 [JMX0515, 5-((4-Chlorophenyl)sulfonyl)-N-(2,4-difluorophenyl)thiazole-4-carboxamide] | <2.1
5 | O=C(Nc1ccccc1F)c1ncsc1S(=O)(=O)c1ccc(Cl)cc1 [JMX0516, 5-((4-Chlorophenyl)sulfonyl)-N-(2-fluorophenyl)thiazole-4-carboxamide] | <1.4
6 | O=C(Nc1cccc(F)c1)c1ncsc1S(=O)(=O)c1ccc(Cl)cc1 [JMX0517, 5-((4-Chlorophenyl)sulfonyl)-N-(3-fluorophenyl)thiazole-4-carboxamide] | <1.6
7 | O=C(Nc1ccc(Cl)cc1)c1ncsc1S(=O)(=O)c1ccc(Cl)cc1 [JMX0518, N-(4-Chlorophenyl)-5-((4-chlorophenyl)sulfonyl)thiazole-4-carboxamide] | 1.1
8 | O=C(Nc1ccc(Cl)cc1Cl)c1ncsc1S(=O)(=O)c1ccc(Cl)cc1 [JMX0519, 5-((4-Chlorophenyl)sulfonyl)-N-(2,4-dichlorophenyl)thiazole-4-carboxamide] | <2.4
9 | O=C(Nc1ccc(F)c(F)c1)c1ncsc1S(=O)(=O)c1ccc(Cl)cc1 [JMX0520, 5-((4-Chlorophenyl)sulfonyl)-N-(3,4-difluorophenyl)thiazole-4-carboxamide] | <0.8
10 | O=C(Nc1ccc(C(F)(F)F)cc1)c1ncsc1S(=O)(=O)c1ccc(Cl)cc1 [JMX0521, 5-((4-Chlorophenyl)sulfonyl)-N-(4-(trifluoromethyl)phenyl)thiazole-4-carboxamide] | <0.5
11 | O=C(Nc1cc(F)cc(C(F)(F)F)c1)c1ncsc1S(=O)(=O)c1ccc(Cl)cc1 [JMX0522, 5-((4-Chlorophenyl)sulfonyl)-N-(3-fluoro-5-(trifluoromethyl)phenyl) thiazole-4-carboxamide] | 1.0
12 | O=C(Nc1ccc(C(F)(F)F)nc1)c1ncsc1S(=O)(=O)c1ccc(Cl)cc1 [JMX0523, 5-((4-Chlorophenyl)sulfonyl)-N-(6-(trifluoromethyl)pyridin-3-yl) thiazole-4-carboxamide] | <1.1
13 | O=C(Nc1ccc(F)nc1)c1ncsc1S(=O)(=O)c1ccc(Cl)cc1 [JMX0524, 5-((4-Chlorophenyl)sulfonyl)-N-(6-fluoropyridin-3-yl)thiazole-4-carboxamide] | <1.7
14 | O=C(Nc1ccc(F)cc1)c1ncsc1S(=O)(=O)c1ccc(Cl)cc1 [JMX0525, 5-((4-Chlorophenyl)sulfonyl)-N-(4-fluorophenyl)thiazole-4-carboxamide] | <3.1
15 | O=C(NCc1ccc(F)cc1)c1ncsc1S(=O)(=O)c1ccc(Cl)cc1 [JMX0541, 5-((4-Chlorophenyl)sulfonyl)-N-(4-fluorobenzyl)thiazole-4-carboxamide] | 1.1
16 | O=C(Nc1ccc(F)cc1)c1nnsc1Sc1ccc(Cl)cc1 [JMX0564, 5-((4-Chlorophenyl)thio)-N-(4-fluorophenyl)-1,2,3-thiadiazole-4-carboxamide] | <4.2

Row | Compound | TI, therapeutic index (CC50/MIC)
17 | O=C(Nc1ccc(F)cc1)c1nnsc1[S+]([O-])c1ccc(Cl)cc1 (stereo not shown) [JMX0565-1, 5-((4-Chlorophenyl)sulfinyl)-N-(4-fluorophenyl)-1,2,3-thiadiazole-4-carboxamide] | 335
18 | O=C(Nc1ccc(F)cc1F)c1nnsc1Sc1ccc(Cl)cc1 [JMX0569, 5-((4-Chlorophenyl)thio)-N-(2,4-difluorophenyl)-1,2,3-thiadiazole-4-carboxamide] | <1.9
19 | O=C(Nc1ccc(Cl)cc1)c1nnsc1Sc1ccc(Cl)cc1 [JMX0570, N-(4-Chlorophenyl)-5-((4-chlorophenyl)thio)-1,2,3-thiadiazole-4-carboxamide] | <0.8
20 | O=C(Nc1ccc(Cl)cc1)c1nnsc1S(=O)(=O)c1ccc(Cl)cc1 [JMX0571, N-(4-Chlorophenyl)-5-((4-chlorophenyl)sulfonyl)-1,2,3-thiadiazole-4-carboxamide] | 86.5
21 | O=C(NCc1ccc(F)cc1)c1nnsc1Sc1ccc(Cl)cc1 [JMX0573, 5-((4-Chlorophenyl)thio)-N-(4-fluorobenzyl)-1,2,3-thiadiazole-4-carboxamide] | <2.8
22 | O=C(NCc1ccc(F)cc1)c1nnsc1S(=O)(=O)c1ccc(Cl)cc1 [JMX0574, 5-((4-Chlorophenyl)sulfonyl)-N-(4-fluorobenzyl)-1,2,3-thiadiazole-4-carboxamide] | 27.5
23 | O=C(Nc1ccc(C(F)(F)F)cc1)c1nnsc1Sc1ccc(Cl)cc1 [JMX0575, 5-((4-Chlorophenyl)thio)-N-(4-(trifluoromethyl)phenyl)-1,2,3-thiadiazole-4-carboxamide] | <2.7
24 | O=C(Nc1ccc(C(F)(F)F)cc1)c1nnsc1S(=O)(=O)c1ccc(Cl)cc1 [JMX0576, 5-((4-Chlorophenyl)sulfonyl)-N-(4-(trifluoromethyl)phenyl)-1,2,3-thiadiazole-4-carboxamide] | 51.7
25 | O=C(Nc1ccc(F)cc1)c1nnc(Sc2ccc(Cl)cc2)s1 [JMX0584, 5-((4-chlorophenyl)thio)-N-(4-fluorophenyl)-1,3,4-thiadiazole-2-carboxamide] | <1.5
26 | O=C(Nc1ccc(F)cc1)c1nnc(S(=O)(=O)c2ccc(Cl)cc2)s1 [JMX0585-1, 5-((4-chlorophenyl)sulfonyl)-N-(4-fluorophenyl)-1,3,4-thiadiazole-2-carboxamide] | 8.3
27 | O=C(Nc1ccc(F)cc1)c1nnc([S+]([O-])c2ccc(Cl)cc2)s1 (stereo not shown) [JMX0585-2, 5-((4-chlorophenyl)sulfinyl)-N-(4-fluorophenyl)-1,3,4-thiadiazole-2-carboxamide] | 294 and 293.7
28 | O=C(Nc1ccccc1F)c1nnsc1S(=O)(=O)c1ccc(Cl)cc1 [JMX872, 5-((4-Chlorophenyl)sulfonyl)-N-(2-fluorophenyl)-1,2,3-thiadiazole-4-carboxamide] | <3.2
29 | O=C(Nc1ccc(F)c(F)c1)c1nnsc1S(=O)(=O)c1ccc(Cl)cc1 [JMX876, 5-((4-Chlorophenyl)sulfonyl)-N-(3,4-difluorophenyl)-1,2,3-thiadiazole-4-carboxamide] | 52.1
30 | Cc1ccc(NC(=O)c2nnsc2S(=O)(=O)c2ccc(Cl)cc2)cc1 [JMX1033, 5-((4-chlorophenyl)sulfonyl)-N-(p-tolyl)-1,2,3-thiadiazole-4-carboxamide] | <3.1
31 | Cc1ccc(NC(=O)c2nnsc2[S+]([O-])c2ccc(Cl)cc2)cc1 (stereo not shown) [JMX1033-2] | <1.5

Where “and” joins values, the source holds several entries; their conditions need not be identical. Equal entries are not always repeated.
